According to paper PMC11336141:

Key:
Dr-sstr2b = assay: PRESTO-Tango β-arrestin recruitment assay, Dr-sstr2b; assay type: cell-based, zebrafish (Danio rerio); conditions: for pEC50: Dr-sstr2b, Fig. S15D
Dr-sstr2a = assay: PRESTO-Tango β-arrestin recruitment assay, Dr-sstr2a; assay type: cell-based, zebrafish (Danio rerio); conditions: for pEC50: Dr-sstr2a, Fig. S15D
[1] = Table S9, additional isolated venom material for #32-20

## CC(C)C[C@H](NC(=O)[C@H](CCCNC(=N)N)NC(=O)[C@H](CCC(N)=O)NC(=O)[C@H](CCC(=O)O)NC(=O)[C@@H]1CCCN1C(=O)[C@H](C)NC(=O)[C@@H]1C[C@@H](O)CN1C(=O)[C@@H](NC(=O)[C@@H](NC(=O)[C@H](CC(C)C)NC(=O)[C@H](CC(C)C)NC(=O)[C@@H](NC(=O)[C@H](C)NC(=O)[C@H](CC(=O)O)NC(=O)[C@H](CC(C)C)NC(=O)[C@H](CC(C)C)NC(=O)[C@@H](NC(=O)[C@H](CC(=O)O)NC(=O)[C@@H](NC(=O)[C@@H]1CCC(=O)N1)[C@@H](C)O)C(C)C)[C@@H](C)O)[C@@H](C)O)[C@@H](C)O)C(=O)N[C@@H](Cc1ccccc1)C(=O)N[C@H]1CSSC[C@@H](C(=O)N[C@@H](Cc2c[nH]c3ccccc23)C(=O)N2C[C@H](O)C[C@H]2C(=O)N[C@@H](CCCNC(=N)N)C(=O)N2C[C@H](O)C[C@H]2C(=O)N[C@@H](Cc2ccc(O)cc2)C(=O)N2CCC[C@H]2C(=O)N[C@@H](Cc2c[nH]c3ccccc23)C(N)=O)NC(=O)[C@H](CO)NC(=O)[C@H](CCCCN)NC(=O)[C@@H](Cc2c[nH]c3ccccc23)NC(=O)[C@H](Cc2ccccc2)NC1=O [des-glyco nG1]
Dr-sstr2b; replicate 1
  pEC50: 8.461
Dr-sstr2b; replicate 2
  pEC50: 7.949
Dr-sstr2b; replicate 3
  pEC50: 8.77
Dr-sstr2b; replicate 4
  pEC50: 8.8
Dr-sstr2b; replicate 5
  pEC50: 9.741
Dr-sstr2b; replicate 6
  pEC50: 9.322
Dr-sstr2b; Table S9
  Hill Slope: 0.53 ± 0.10
  Span ± S.E.M.: 96.18 ± 8.60
Dr-sstr2b; [1]
  pEC50 ± S.E.M.: 8.71 ± 0.14
Dr-sstr2b; Table S9, relative to SS-14
  Emax ± S.E.M.: 92.57 ± 3.75%
Dr-sstr2a; replicate 1
  pEC50: 6.189
Dr-sstr2a; replicate 2
  pEC50: 6.158
Dr-sstr2a; replicate 3
  pEC50: 6.79
Dr-sstr2a; replicate 4
  pEC50: 6.732
Dr-sstr2a; replicate 5
  pEC50: 6.812
Dr-sstr2a; replicate 6
  pEC50: 6.765
Dr-sstr2a; PRESTO-Tango, HTLA cells, listed as Des-glyco nG1
  activation of Dr-sstr2a in words: partial agonist at Dr-sstr2a; also recorded: only partially rescued the potent activation of the Dr-sstr2a
Dr-sstr2a; Table S9
  Hill Slope: 0.95 ± 0.13
  Span ± S.E.M.: 65.90 ± 4.87
Dr-sstr2a; [1]
  EC50: 296 nM
Dr-sstr2a; Table S9, relative to SS-14
  Emax ± S.E.M.: 68.55 ± 4.56%

Entries after “also recorded” stand apart in the source; their conditions may differ.
